From patent publication US20060111420A1, “Sorbicillactone-a derivatives for the treatment of tumour and viral diseases” (Johannes Gutenberg-Universitat Mainz, priority 2002, published 2006)

Key:
[1] = tested on: HTLV-IIIB (HIV-1)-viruses in H9-cells; test: Production of reverse transcriptase (viral production) in H9-HTLV-IIIB-cells; conditions: 4 days; for reverse transcriptase activity (100%): control 100
[2] = tested on: H9-cells infected with HTLV-IIIB (HIV-1); test: Cellular growth of HTLV-IIIB infected H9-cells; conditions: for Cellular concentration × 1,000,000/ml: 4 days, infected control 0.62
HIV p24 (gag-protein) = test: Expression of p24 in infected H9-cells (indirect immunofluorescence); conditions: for Expression of p24 (in %): control 100; for effect on the expression of p24 (in words): infected H9-cells
HIV p15 (Gag-Protein) = test: Expression of p15 in infected H9-cells (indirect immunofluorescence); conditions: for Expression of p15 (in %): control 100; for effect on the expression of p15 (in words): infected H9-cells

SMILES | reverse transcriptase activity (100%) ([1]; 0.1 μg/ml) [%] | reverse transcriptase activity (100%) ([1]; 0.3 μg/ml) [%] | reverse transcriptase activity (100%) ([1]; 1.0 μg/ml) [%] | reverse transcriptase activity (100%) ([1]; 3.0 μg/ml) [%] | activity of reverse transcriptase in the supernatant (in words) ([1]; H9-HTLV-IIIB-cells) | Cellular concentration × 1,000,000/ml ([2]; 0.1 μg/ml) | Cellular concentration × 1,000,000/ml ([2]; 0.3 μg/ml) | Cellular concentration × 1,000,000/ml ([2]; 1.0 μg/ml) | Cellular concentration × 1,000,000/ml ([2]; 3.0 μg/ml) | growth rate of H9-HTLV-IIIB-cells (in words) ([2]; 0.3 to 3.0 μg/ml, to values in the range of uninfected H9 controls) | Expression of p24 (in %) (HIV p24 (gag-protein); 0.1 μg/ml) [%] | Expression of p24 (in %) (HIV p24 (gag-protein); 0.3 μg/ml) [%] | Expression of p24 (in %) (HIV p24 (gag-protein); 1.0 μg/ml) [%] | Expression of p24 (in %) (HIV p24 (gag-protein); 3.0 μg/ml) [%] | effect on the expression of p24 (in words) (HIV p24 (gag-protein)) | Expression of p15 (in %) (HIV p15 (Gag-Protein); 0.1 μg/ml) [%] | Expression of p15 (in %) (HIV p15 (Gag-Protein); 0.3 μg/ml) [%] | Expression of p15 (in %) (HIV p15 (Gag-Protein); 1.0 μg/ml) [%] | Expression of p15 (in %) (HIV p15 (Gag-Protein); 3.0 μg/ml) [%] | effect on the expression of p15 (in words) (HIV p15 (Gag-Protein))
C/C=C/C=C/C(O)=C1/C(=O)C(C)=C(O)[C@@]2(C)OC(=O)[C@@](C)(NC(=O)/C=C/C(=O)O)[C@@H]12 [Sorbicillacton A, sorbicillacton A] | 83 | 28 | 22 | 14 | dose-dependent reduction | 0.68 × 1,000,000/ml | 0.83 × 1,000,000/ml | 1.39 × 1,000,000/ml | 0.92 × 1,000,000/ml | increases the growth rate | 93 | 42 | 28 | 24 | strong inhibiting effect | 98 | 65 | 31 | 47 | strong inhibiting effect
C/C=C/C=C/C(O)=C1/C(=O)C(C)=C(O)C2(C)OC(=O)C(C)(NC(=O)C3NN=CC3C(=O)OC)C12 (stereo not shown) [SOA-D1] | – | – | – | – | – | – | – | – | – | – | – | – | – | – | strong inhibiting effect | – | – | – | – | strong inhibiting effect
